Target: canine ACE2 (ectodomain), histidine-tagged (dog)
Assay: BLI; anti-penta-His (HIS1K) biosensors, Octet RED96, 30°C, shaking 1,000 RPM; reference sample subtracted; 1:2 bivalent binding model with global fit

Q: Which Kd does the source give for “SARS-CoV-2 S1 (Sino Biological 40591-V02H) (from UniProt P0DTC2 14-685) (domain or fragment)” here?
A: 19.5 nM
